Data on one compound can be found in PubChem BioAssay AID1347131 (National Center for Advancing Translational Sciences (NCATS), 2019).

The list shows a part of the results, in another mix than the full data. Inconclusive results are not listed. Calls of active or inactive are those of the source. Calls come from the whole dose curve; tested in HEK293 reporter line.

The nature of this experiment: qHTS Assay for Foot and Mouth Disease Virus Antivirals: Primary Screen against the MLPCN compound library. Note: nearly all actives have a fitted effect of over 55% in size. To be noted: FMDV antiviral cell-based qHTS; at 57.9 µM (top of the series). On the technique in general: In qHTS, concentration-response curves come from the screen itself.
For the compound `O=C(OCCN1CCN(CCOCc2ccccc2)CC1)C(O)(c1ccccc1)c1ccccc1`, the activity, negative = inhibition is inactive: -55%.
